For series [1], the target named is T1, purified R220A variant of PenA1 (Burkholderia multivorans, UniProt A0A0H3KN52, R233A). As to conditions: R220A vs PenA1.
The target of series [2] is T1, purified R220A variant of PenA1. The series is described as follows: biochemical.
Series [3] has the same target. As to conditions: R220A vs PenA1. This is another data set of the same source.
Series [4] has the same target. The conditions noted are these: for k2/K fold decrease: R220A vs PenA1; for k2/K: purified R220A, acylation rate (kinact/KI or k2/K), nitrocefin 100 μM reporter.
The test system of series [5] is O=C(Cc1cccs1)N[C@@H]1C(=O)N2C(C(=O)O)=C(/C=C/c3ccc([N+](=O)[O-])cc3[N+](=O)[O-])CS[C@H]12. The series is described as follows: cells, lysate or membranes named. The conditions noted are these: other: R220A variant; used for correction of Ki-app; pH 7.4.

Like-named read-outs stand apart in the source and are kept apart here.

In general, Ki refers to a measure of affinity in units of concentration, obtained from inhibition or displacement. In the case of `O=C(O)[C@H]1/C(=C/CO)O[C@@H]2CC(=O)N21` [clavulanic acid], the “tn (15 min) fold decrease” value in series [1] amounted to 2.5 fold. In series [2], this compound returned a Ki of 26 ± 3 µM.
In series [3], `Cn1cc[n+](C[C@@]2(C)[C@H](C(=O)[O-])N3C(=O)C[C@H]3S2(=O)=O)n1` [enmetazobactam] came in with a Ki-app fold increase of 22 fold. Besides, in series [4], the k2/K fold decrease turned out to be 77 fold and the k2/K is 8.1 ± 1.5 × 10^3 M^−1 s^−1. Also, the “tn (15 min) fold decrease” value in series [1] was 10 fold.
As to `O=C(NC1CCNCC1)[C@@H]1CC[C@@H]2CN1C(=O)N2OS(=O)(=O)O` [relebactam], the “tn (15 min) fold change, increased (DBOs, footnote b)” value in series [1] (increased not decreased) was 5^b fold. Besides, the affinity in series [2], expressed as Ki, was 110 ± 17 µM.
For the compound `C[C@]1(Cn2ccnn2)[C@H](C(=O)O)N2C(=O)C[C@H]2S1(=O)=O` [tazobactam], in series [1], the “tn (15 min) fold decrease” value stood at 5 fold. This compound yielded a Ki in series [2] of 36 ± 10 µM.
Consider `O=C(O)C[C@@H]1CC[C@H](NC(=O)Cc2cccs2)B(O)O1` [vaborbactam], for which the Ki-app fold increase in series [3] came to 3 fold; in series [3] (listed as Vaborbactam), 2 fold. In series [4], this compound returned a k2/K fold decrease of 4 fold. In series [4], the k2/K is recorded as 8.4 ± 2.0 × 10^1 M^−1 s^−1. The “tn (15 min) fold decrease” value in series [1] is given as 2 fold. The affinity in series [2], expressed as Ki, was 108 ± 10 µM.
As a reminder, the Km is the concentration of substrate that gives half-maximal velocity. On to “purified R220A variant of PenA1 (Burkholderia multivorans ATCC 17616; R233A)”, for which the Km in series [5] was found to be 193 µM.
